Results of unrelated studies side by side (data: NIAID ChemDB).

Common to all: whole-cell or culture tests; agent: Cytomegalovirus; read-out: EC50

Blank or dashed fields: not listed here. ECn: concentration that inhibits the pathogen or its effect by n%. Conditions beyond the fields shown may differ between rows.

| SMILES | method | cells | strain | result |
|---|---|---|---|---|
| Nc1nc(Cl)c2ncn(C[C@H]3CC[C@@H](CO)C3)c2n1 | cytopathic effect | HEL | DAVIS | >5 µg/mL |
| O=c1[nH]c(=O)n([C@H]2C[C@H](O)[C@@H](CO)S2)cc1C1CCCC1 | plaque count | HEL | DAVIS/AD169 | >1200 µM |
| O=C(O)P(=O)(O)O |  |  |  | 19 µM |
| Nc1ncnc2c1ncn2CCOCP(=O)(O)O | cytopathic effect | HEL | AD169 | 40 µg/mL |
| Nc1cc(OCCOCP(=O)(O)O)nc(N)n1 | cytopathic effect |  | DAVIS | >190 µM |
| C[C@H]1C[C@@H](n2cnc3c(N)ncnc32)[C@H](O)[C@@H]1O | cytopathic effect | HEL | DAVIS | >10 µg/mL |
| O=c1ccn([C@H]2C[C@H](O)[C@@H](CO)O2)c(=O)[nH]1 | plaque count | HEL | DAVIS/AD169 | >2000 µM |
| Nc1nc(N)c2ncn(CCOCP(=O)(O)O)c2n1 | cytopathic effect | HEL | DAVIS | 20 µg/mL |
| Nc1ccn(C[C@@H](CO)OCP(=O)(O)O)c(=O)n1 | cytopathic effect | HEL | DAVIS | 0.038 µg/mL |
| Nc1ncnc2c1ncn2C[C@@H](CO)OCP(=O)(O)O | cytopathic effect |  | AD169 | 0.63 µM |
| Nc1nc2c(nnn2C[C@H]2CC[C@@H](CO)C2)c(=O)[nH]1 | cytopathic effect | HEL | AD169 | >200 µg/mL |
| O=c1[nH]cnc2c1ncn2CCOCP(=O)(O)O | plaque count | HEL | DAVIS | 150 µg/mL |
| Nc1nc(N)c2ncn(C[C@H]3CC[C@@H](CO)C3)c2n1 | cytopathic effect | HEL | DAVIS | >50 µg/mL |
| O=c1[nH]cnc2c1ncn2C[C@@H](CO)OCP(=O)(O)O | cytopathic effect | HEL | AD169 | 200 µg/mL |
| C[C@H](COc1cc(N)nc(N)n1)OCP(=O)(O)O | cytopathic effect |  | AD169 | >180 µM |
| O=C([O-])CN(CCN(CC(=O)[O-])CC(=O)[O-])CCN(CC(=O)[O-])CC(=O)[O-].[Ca+2].[Na+].[Na+].[Na+] |  | HFF |  | 152 µM |
| O=c1[nH]c(=O)n([C@H]2C[C@H](O)[C@@H](CO)O2)cc1C1CCCCC1 | plaque count | HEL | DAVIS/AD169 | >1200 µM |
| Nc1nc(Cl)c2nnn(C[C@H]3CC[C@@H](CO)C3)c2n1 | cytopathic effect | HEL | AD169 | >200 µg/mL |
| CC(=O)OC[C@H]1O[C@@H](n2c(Cl)nc3cc(Cl)c(Cl)cc32)[C@H](OC(C)=O)[C@@H]1OC(C)=O |  |  |  | 1.4 µM |
| O=c1[nH]c(=O)n([C@H]2C[C@H](O)[C@@H](CO)O2)cc1C1CCCC1 | plaque count | HEL | DAVIS/AD169 | >1200 µM |
| O=C(O)P(=O)(O)O | plaque count | HEL | DAVIS | 10 µg/mL |
| Nc1nc2cc(Cl)c(Cl)cc2n1[C@@H]1O[C@H](CO)[C@@H](O)[C@H]1O |  |  |  | 0.2 µM |

Again, the opening 3 rows:

SMILES,method,cells,strain,result
Nc1nc(Cl)c2ncn(C[C@H]3CC[C@@H](CO)C3)c2n1,cytopathic effect,HEL,DAVIS,>5 µg/mL
O=c1[nH]c(=O)n([C@H]2C[C@H](O)[C@@H](CO)S2)cc1C1CCCC1,plaque count,HEL,DAVIS/AD169,>1200 µM
O=C(O)P(=O)(O)O,,,,19 µM